From patent publication US20080207537A1, “Topical Ungual Formulations” (priority 2005, published 2008) come the findings set out here.

Some entries repeat one wording, which the source may state once for all of them.

The nature of the data set: Nail swelling study (weight increase of nail clippings immersed in penetration enhancer solution). Also noted: species or system human. As to conditions: for nail weight after 20 h: ANOVA (FIG. 6); for weight of the nail clippings after 20 h compared to the control: ANOVA, n=10 (FIG. 1); for physical change in appearance of treated nails: compared to controls.

On to `O[C@@H](CS)[C@@H](O)CS` (racemic) [DTT, 1,4-dithio-DL-threitol], for which the “nail weight after 20 h” value is reported as “significant weight increase” (1% DTT compared to 5% DTT) and “no significant effect” (DTT concentration increases between 5-10%). The “weight of the nail clippings after 20 h compared to the control” value (“weight … compared to the control” below) (single penetration enhancer) is reported as “significantly increased”.

On to `NC(N)=O.OO` [Urea hydrogen Peroxide, Urea hydrogen peroxide addition compound], for which the “weight … compared to the control” value (single penetration enhancer) is on record as “significantly increased”. For the same molecule, for the setting “urea-H2O2, increasing concentrations between 20% and 35% H2O2, ANOVA (FIG. 5)”, the “nail weight increase after 20 h” value was “no significant difference”.

`O=C(O)CO` [Glycolic acid]: for the setting “single penetration enhancer”, the “weight … compared to the control” value was “significantly increased”; the “physical change in appearance of treated nails” value (from here on “physical change in appearance”) was “softer than the controls and also lighter in colour”.

Regarding `O=C(O)CS` [Thioglycolic acid], the “increase in nail weight” value (single penetration enhancer, 5% TA, 20 h (maximum of the single enhancers, FIG. 1)) was found to be 71%. Also, for the setting “single penetration enhancer”, the “weight … compared to the control” value is on record as “significantly increased”; the “physical change in appearance” value is “softer than the controls and also lighter in colour”.

`OO` [Hydrogen peroxide]: for the setting “single penetration enhancer”, the “weight … compared to the control” value was “significantly increased”; the “physical change in appearance” value was “softer than the controls and also lighter in colour”.
